Source: the supplement of paper PMC9931576
Human monoclonal antibodies against the spike receptor-binding domain (heavy:light variable regions). IC50 against pseudoviruses bearing the spike of naturally observed variants; lower = stronger; >10 µg/ml means not reached at the top dose. No active / inactive call. The stated detection limit is 0.0005 µg/ml; values near or below 0.001 µg/ml lie at the floor of the assay.

B1: BD55-6558 (protein)
chain 1: QVQLQQWGAGLLRPSETLSLTCTLSDGSFSGYYWNWVRQSPGKGLEWIGDIDLAGENYNPSLKGRVTMSIDASKNHFSLRLSSVTAADTGVYYCARAPNLGWFGPKQGAFDIWGLGTVVIVSS
chain 2: DIVMTQSPDSLAVSLGERATINCKSSQSLLYSSNNKNYLAWFQQKPGQPPNLLIYWASTRESGVPDRFSGSGSGTEFTLTISSLQAEDVAVYFCQQYYSPPLTFGGGTKVEIK
B2: BD55-6560 (protein)
chain 1: QVQLRESGPGLVKPSETLSLTCTVSGDSMSSYYWSWIRQSAGKGLEWIGRIHPSGATNHKSSLRGRVTMSVDTSKNQFSLQLRSVTAADTAVYYCARGGCSSTSCFGFYFYAMDVWGQGTTVTVSS
chain 2: DIQMTQSPSSLSASVGDRVTITCQASQDISNFLNWYQQRPGKAPKLLISAASNLETGVPSRFSGSGSGTDFTFTISSLLPEDFGTYYCQQYADLPLFGGGTKVE
B3: BD55-6563 (protein)
chain 1: QVQLRQWGAGLLKPSETLSLTCGVYGGSLTGNYWSWIRQPPGKGLEWIGEINHIGSTDYNPSLQSRVTMSVDTSKNQFSLKLISVTADDTAVYYCARLPSRIGSSWPSGNYYYNGVDVWGQGATVTVSS
chain 2: DIVMTQSPDSLAVSLGERATISCKSTHDLLHSSNNKNYLAWYLHKPGQPPKVLIYWGSARGSGVPDRFSGSGSGTDFTLTISGLQAEDVAVYYCQQYYSSPYTFGQGTKLEIK
B4: BD55-6564 (protein)
chain 1: QVQLVQSGAEVKKTGSSVKVSCKASGGTFSTYAITWVRQAPGQGLEWMGKIIPIVGKAHYAQEFQGRVTITADKSTSTVYMELSSLRLEDTAVYYCARENKGGEDTQKYSGYDLLEGGWCDPWGQGTLVIVSS
chain 2: DIVMTQSPDSLAVSLGERATINCKSSQSVLYSSNIENYLAWYQQKPGQPPKLLIYWASTRESGVPDRFTGSGSGTDFTLTISSLQAEDVAVYYCQQYYSTPPTFGQGTKVEIK
B5: BD55-6569 (protein)
chain 1: QLQLQESGPGLVKPSEALSLTCTVSGGAISSSIDYWGWIRQPPGKGLEWIGSLYNGGNTYYNPSLKSRLTISVDMSKDQFSLKLSSVTAADTAVYYCARLAYDGSLDDHWGQGTLVTVSS
chain 2: QSVLTQPPSASGTPGQRVTISCSGRSSNIGSNYVYWYHQLPGMAPKLLIYRNNLRPSGVPDRFSGSKSGASASLAISGLRSEDEAAYYCAAWDDSLSGVVFGGGTKLTVL
B6: BD55-6574 (protein)
chain 1: EVQLVQSGAEVKKPGESLKISCKGSGFSFTHYWIGWVRQVPGQGLEWMGIIYPDDSDTTYSPSFQGRITISADKSSSTAYLQWSSLKASDTAIYYCGFTMTTVGGRYFDFWGQGTLVTVSS
chain 2: IQMTQSPSTLSASVGDRVTITCRASQSISTSLAWYQQKPGKAPSLLIYKTSTLESGVPSRFSGSGSGTEFTLTISSLRPDDFATYHCQQYSAFPLTFGQGTKVEIK
B7: BD55-6580 (protein)
chain 1: QITLKESGPTLVKPTQTLTLTCTFSGFSLATSGVGVGWIRQPPGKALEWLGIIYWNDDNRYSPSLRNRLTITKATSKNQVVLTMTNLDPVDTATYFCAHIPRHTYVLNQDNWFDPWGQGTLVTVSS
chain 2: SYELTQPPSVSVSPGQTARITCSGDAWPNQYAYWYQQKPGQAPILVIYKDTQRPSGIPERFSGSSSGTTVTLTISGVQAEDEADYYCQSADSSDVVFGGGTRLTVL
B8: BD55-6581 (protein)
chain 1: EVQLVESGGGLVQPGRSLRLSCVASGFIFSGNDLHWVRQAPGKGLEWISYISPNEYVIYYADSVKGRFTISRDDAKNSLSLQMNSLGAEDTGVYYCASGTGAHMITFGGVMTYWGQGILVTVSS
chain 2: QSVLTQPPSVSAAPGQKVTISCSGSSSNIGHGSVSWYQQLPGTAPKLLIFDSQRRPSGIPDRFSGSRSGTSATLDITGLQTGDEADYYCGTWDSSLSGVVFGGGTKLTVL
B9: BD55-6586 (protein)
chain 1: EVQLLESGGGLVQPGGSLRLSCAASGLIFSTYAMNWVRQAPGKGLEWVSGISGSGGSSYHADSVKARFTISRDNSKNTLYLQMNSLRAEDTAVYYCAKFDSSSFLENYYYYYMDVWGKGTTVTVSS
chain 2: SSELTQSPSVSVSSGQTATITCSGDKLGDKSASWYQQKPGQSPVLIIYHDAKRPSGISERFSGSNSGNTATLTITGTQTLDEADYYCQAWNSNTGLVVFGGGTKLTVL
B10: BD55-6600 (protein)
chain 1: QVQLVQSGAEVKKPGASVKVSCKASGYTFIGYYMHWVRQAPGQGLEWMGWVNPNSGDTQYKQKFQGRVTVTRDTSINTVYMDLSRLRSDDTAVYYCAREQKVVRGVWSYYGLDFWGQGTTVTVSS
chain 2: QSVLTQPPSASGTPGQRVTISCSGSSSNIGGNTVNWYQQLPGTAPKLLIYRNNQRPSGVPDRFSGSKSGTSASLAISGLQSEDEADYYCEARDDSLNSVVFGGGTKLTVL
B11: BD55-6611 (protein)
chain 1: EVQLVESGGGLVQPGGSLRLSCAASGFTFSAYAMHWVRQAPGKGLEYVSAITSDGGGTFYADSVKGRFTISRDNSRNTLFLQMGSLRAEDMAVYYCAREGIYSYGLYFDYWGQGSLVTVSS
chain 2: DIQMTQSPSSLSASVGDRISITCRASQSISNYLNWYQQKPGKAPKLLIYAASSLQSGVPSRFSGSGSGTDFTLTISSLQPEDFATYYCQQSYLTPMYSFGQGTKLEFK
B12: BD55-6612 (protein)
chain 1: QVQLVQSGAEVKKPGASVKISCKVSGYSFTAYYMHWVRQAPGQGLEWMGWINPDSGGTKYAQKFQGRVTMTRDTSSSTAYMELRRLRSDDTAVFYCARGPAVTAMQYFYYYGMDVWGQGTTVTVSS
chain 2: SYELTQPPSVSVSPGQTARITCSGDALPNQYSYWYHQKPGQVPVLVIYKDNERPSGIPERFSGSRSGTTVTLTISGVQSEDEADYYCQSVDSSASWVFGGGTKLTVL

Key:
Assay in all cases: pseudovirus neutralization IC50; higher = weaker neutralization
[1] = molecular target: SARS-CoV-2 Omicron BA.1 spike pseudovirus
Description: (§1)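 Single-round VSV luciferase pseudovirus mixed with antibody dilutions for 1 h and put on Huh-7 cells for about a day; IC50 from the dose curve.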

[2] = molecular target: SARS-CoV-2 Omicron BA.2 spike pseudovirus
Description: as §1

[3] = molecular target: SARS-CoV-2 Omicron BA.2.75 spike pseudovirus
Description: as §1

[4] = molecular target: SARS-CoV-2 Omicron BA.5 spike pseudovirus
Description: as §1

[5] = molecular target: SARS-CoV-2 Omicron BQ.1.1 spike pseudovirus
Description: as §1

[6] = molecular target: SARS-CoV-2 Omicron XBB spike pseudovirus
Description: as §1

[7] = molecular target: SARS-CoV-2 early D614G spike pseudovirus
Description: as §1

Binder	pseudovirus neutralization IC50 [1] [µg/mL]	pseudovirus neutralization IC50 [2] [µg/mL]	pseudovirus neutralization IC50 [3] [µg/mL]	pseudovirus neutralization IC50 [4] [µg/mL]	pseudovirus neutralization IC50 [5] [µg/mL]	pseudovirus neutralization IC50 [6] [µg/mL]	pseudovirus neutralization IC50 [7] [µg/mL]
B1	> 10	> 10	> 10	> 10	> 10	> 10	> 10
B2	> 10	> 10	> 10	> 10	> 10	> 10	> 10
B3	> 10	> 10	> 10	> 10	> 10	> 10	> 10
B4	> 10	> 10	> 10	> 10	> 10	> 10	0.487
B5	> 10	> 10	> 10	> 10	> 10	> 10	3.64
B6	> 10	> 10	> 10	> 10	> 10	> 10	> 10
B7	> 10	> 10	> 10	> 10	> 10	> 10	> 10
B8	> 10	> 10	> 10	> 10	> 10	> 10	> 10
B9	> 10	> 10	> 10	> 10	> 10	> 10	> 10
B10	> 10	> 10	> 10	> 10	> 10	> 10	> 10
B11	> 10	> 10	> 10	> 10	> 10	> 10	> 10
B12	> 10	> 10	> 10	> 10	> 10	> 10	> 10
